Data as given in US7652050B2, “Methods for increasing the survival of aquatic animals infected with an aquatic virus” (Laboratorio de Siagnóstico GAM S.A, priority 2001, dated 2010).

Tested on: IPNV
Assay: Survival of IPNV-infected Atlantic salmon fry treated with neomycin by immersion
Details: neomycin as low as 10 ppm, 1 hour daily bath through day 10; followed 26 days

## neomycin
  Survival of infected fry, treatment from day one post-infection: can maintain survival to levels equivalent to the uninfected controls
